Consider one compound from patent publication US11598051B2, “Method for manufacturing a fibrous web” (Kemira Oyj, priority 2017, dated 2023).

A short description of this data set: Example 2 laboratory broke storage test: pH and redox measurements.
Setting [1] is: broke, 50 mg/l as active agent, +45° C., closed, after 3 days storage time.

For `O=CCCCC=O` [glutaraldehyde], the “development of anaerobic fermentative conditions” value (50 mg/l, 3 days of storage) is reported as “effectively prevented development of anaerobic fermentative conditions”. Under setting [1], this compound returned a pH of 7.4 and a redox of 145 mV.
